Measurements from PMC11085872, “Structure-Based Design of Novel Thiazolone[3,2-a]pyrimidine Derivatives as Potent RNase H Inhibitors for HIV Therapy” (Molecules, 2024).

Assay: Spectrophotometric magnesium complexation
Conditions: EtOH:dioxane:water = 1:1:1, MgCl2 = 10^−3 M

SMILES: COC(=O)C1=C(C)N=C2SC(=NNc3ccccc3C(=O)OC)C(=O)N2C1c1ccc(OC)cc1 (centres unmarked) [Compound 12b, Methyl 2-(2-(2-(methoxycarbonyl)phenyl)hydrazineylidene)-5-(4-methoxyphenyl)-7-methyl-3-oxo-2,3-dihydro-5H-thiazolo[3,2-a]pyrimidine-6-carboxylate]
- UV absorbance change upon addition of magnesium ions: the absorbance of the solution increased around the wavelength range of 400–450 nm

SMILES: COC(=O)C1=C(C)N=C2SC(=NNc3ccccc3C(C)=O)C(=O)N2C1c1ccc(OC)cc1 (centres unmarked) [Compound 12a, Methyl 2-(2-(2-acetylphenyl)hydrazineylidene)-5-(4-methoxyphenyl)-7-methyl-3-oxo-2,3-dihydro-5H-thiazolo[3,2-a]pyrimidine-6-carboxylate]
- UV absorbance change upon addition of magnesium ions: the absorbance of the solution increased around the wavelength range of 400–450 nm
